Data as given in PubChem BioAssay AID624099 (ICCB-Longwood, 2012).
Shown is a random part of about 21,000 deposited reagents. 497 of all reagents (2.4%) were called active. 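Higher z means weaker E2 silencing; only reporter increases were scored, and knock-downs that hurt cell survival may mask genuine repressor factors.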

Aim: 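Host factors E2 relies on to silence an HPV18 LCR reporter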 (primary screen)
Cells: human C33A cervical carcinoma cells (HPV-negative) stably expressing BPV1 E2 and an HPV18 LCR luciferase reporter
Reagent: siRNA pool against human genes, 40 nM
Time to read-out: 72 h
Read-out: 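Per-well luciferase luminescence, z-scored on each plate against the plate mean and SD with control wells left out, then averaged across three replicate plates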
Direction: mean z-score and z-score: higher = stronger reporter signal, weaker E2 silencing
Hit rule: 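Hit if mean z-score reaches 2 and two or more of three replicate z-scores also reach 2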

| Gene | mean z-score | z-score, replicate A | z-score, replicate B | z-score, replicate C | Outcome |
| --- | --- | --- | --- | --- | --- |
| C1orf216 | 0.57 | 0.85 | 0.27 | 0.57 | inactive |
| UBOX5 | 0.58 | 0.73 | 0.54 | 0.47 | inactive |
| HHATL | -0.69 | -0.68 | -0.71 | -0.67 | inactive |
| CPNE1 | 0.44 | 0.39 | 0.11 | 0.82 | inactive |
| UBR2 | 0.25 | 0.27 | 0.31 | 0.15 | inactive |
| TUBB4A | 0.73 | 0.43 | 0.57 | 1.18 | inactive |
| APCDD1 | -0.71 | -1.31 | -0.55 | -0.26 | inactive |
| AFAP1-AS1 | -0.81 | -0.54 | -1.02 | -0.86 | inactive |
| PSD4 | -0.04 | -0.01 | -0.13 | 0 | inactive |
| NET1 | 0.4 | 0.62 | 0.35 | 0.23 | inactive |
| PLCG2 | -0.89 | -1.11 | -0.81 | -0.76 | inactive |
| MED19 | -2.39 | -2.44 | -2.33 | – | inactive |
| KANK4 | -0.42 | -0.84 | -0.55 | 0.14 | inactive |
| SCAP | -0.37 | -0.48 | -0.25 | -0.38 | inactive |
| C2orf68 | 2.14 | 1.96 | 1.89 | 2.56 | inactive |
| LOC388509 (retired record) | 0.46 | 0.86 | 0.2 | 0.32 | inactive |
| NDUFB10 | -0.99 | -0.9 | -0.83 | -1.24 | inactive |
| TAX1BP3 | 0.75 | 0.73 | 0.67 | 0.85 | inactive |
| CHCHD6 | 0.66 | 0.78 | 0.4 | 0.81 | inactive |
| PRPF40B | -0.1 | -0.19 | -0.15 | 0.02 | inactive |
| RAPGEF6 | -0.31 | -0.27 | -0.3 | -0.36 | inactive |
| LOC388968 (retired record) | 0.35 | 0.57 | 0.3 | 0.17 | inactive |
| VSIG8 | -1.19 | -0.79 | -1.21 | -1.59 | inactive |

Copied from the listing, 4 entries:
| Gene | mean z-score | z-score, replicate A | z-score, replicate B | z-score, replicate C | Outcome |
| --- | --- | --- | --- | --- | --- |
| UBOX5 | 0.58 | 0.73 | 0.54 | 0.47 | inactive |
| HHATL | -0.69 | -0.68 | -0.71 | -0.67 | inactive |
| CPNE1 | 0.44 | 0.39 | 0.11 | 0.82 | inactive |
| UBR2 | 0.25 | 0.27 | 0.31 | 0.15 | inactive |
